Reference: PMC7840908 (Communications Biology, 2021)

Legend:
[1] = molecular target: T1, MERS-CoV macro domain G45V (Middle East respiratory syndrome-related coronavirus, UniProt K9N638, G1154V); conditions: G45V compared with WT
[2] = molecular target: T1, MERS-CoV macro domain G45V; conditions: 308 K
[3] = molecular target: MERS-CoV macro domain (Middle East respiratory syndrome-related coronavirus, UniProt K9N638); assay: Isothermal titration calorimetry (ITC), WT protein; type: binding
[4] = molecular target: T2, MERS-CoV macro domain I129F (Middle East respiratory syndrome-related coronavirus, UniProt K9N638, I1238F); conditions: 308 K
[5] = molecular target: T2, MERS-CoV macro domain I129F

Question: Which results are given for `NC(=O)c1ccc[n+]([C@@H]2O[C@H](COP(=O)([O-])OP(=O)(O)OC[C@H]3O[C@@H](n4cnc5c(N)ncnc54)[C@H](O)[C@@H]3O)[C@@H](O)[C@H]2O)c1` [NAD, nicotinamide adenine dinucleotide]?
Answer: Tm differences with various amounts of NAD, DSF [1]: fewer Tm differences; n (stoichiometry of binding) [2]: 1.31 ± 0.10; ΔG [2]: -5.425 ± 0.17 kcal/mol; ΔH [2]: -18.18 ± 9.916 kcal/mol; −TΔS [2]: 12.75 ± 9.919 kcal/mol; ΔG ([3]; 308 K, WT): -6.052 ± 0.0311 kcal/mol; Heat difference detected by ITC during titration [4]: no significant heat difference detected; Tm differences with various amounts of NAD, DSF [5]: no Tm changes

Question: For `Nc1ncnc2c1ncn2[C@@H]1O[C@H](COP(=O)(O)OP(=O)(O)O)[C@@H](O)[C@H]1O` [ADP, adenosine diphosphate], which Kd ([3]; 298 K) is on record?
Answer: 70.3 µM

Question: And the ΔG ([3]; 298 K)?
Answer: -5.707 ± 0.294 kcal/mol

Question: For `Nc1ncnc2c1ncn2C1OC(COP(=O)(O)O)C(O)C1O` (stereo not drawn) [AMP, adenosine monophosphate], which Kd ([3]; 298 K) is on record?
Answer: 191 µM

Question: What about the ΔG ([3]; 298 K) of the same compound?
Answer: -5.093 ± 0.194 kcal/mol
